Fold change is the IC50 on the isolate divided by the IC50 on a reference virus; 1 = unchanged, higher = more resistant. Changes are given against the subtype B consensus. No active / inactive call. The values were gathered from many studies (numbered anew) with different assays, which the source does not name. Most viruses are clinical isolates; some are laboratory strains or clones with known resistance changes. Isolates with mixed residues are left out; stretches that were not sequenced show no change. Round top values that many isolates share are read here as limits; other very high values and 0.1 may be limits too.
Assays:
Experiment in all cases: fold change of IC50 against reference virus; higher = more resistant
zidovudine = compound: Cc1cn([C@H]2C[C@H](N=[N+]=[N-])[C@@H](CO)O2)c(=O)[nH]c1=O [zidovudine]
Protocol: (§1)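 Cell-culture drug susceptibility tests of virus bearing the reverse transcriptase of each isolate, gathered from many studies.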

abacavir = compound: Nc1nc(NC2CC2)c2ncn([C@H]3C=C[C@@H](CO)C3)c2n1 [abacavir]
Protocol: as §1

stavudine = compound: Cc1cn([C@H]2C=C[C@@H](CO)O2)c(=O)[nH]c1=O [stavudine]
Protocol: as §1

didanosine = compound: O=c1[nH]cnc2c1ncn2[C@H]1CC[C@@H](CO)O1 [didanosine]
Protocol: as §1

delavirdine = compound: CC(C)Nc1cccnc1N1CCN(C(=O)c2cc3cc(NS(C)(=O)=O)ccc3[nH]2)CC1 [delavirdine]
Protocol: as §1

nevirapine = compound: Cc1ccnc2c1NC(=O)c1cccnc1N2C1CC1 [nevirapine]
Protocol: as §1

efavirenz = compound: O=C1Nc2ccc(Cl)cc2[C@@](C#CC2CC2)(C(F)(F)F)O1 [efavirenz]
Protocol: as §1

Test System | fold change of IC50 against reference virus (zidovudine) | fold change of IC50 against reference virus (abacavir) | fold change of IC50 against reference virus (stavudine) | fold change of IC50 against reference virus (didanosine) | fold change of IC50 against reference virus (delavirdine) | fold change of IC50 against reference virus (nevirapine) | fold change of IC50 against reference virus (efavirenz)
HIV-1 isolate 72 (reverse transcriptase changes: E44D M184V, study 93) | 1.2 | 3.1 | – | – | – | – | –
HIV-1 isolate 178 (reverse transcriptase changes: E44D, study 93) | 2 | 1.3 | – | – | – | – | –
HIV-1 isolate 189 (reverse transcriptase changes: D67N K70R K103N Y181C T215Y K219Q, study 107) | 36.4 | 2.1 | 1.7 | 0.7 | – | – | –
HIV-1 isolate 195 (reverse transcriptase changes: E44D V118I, study 93) | 1.2 | 2.2 | – | – | – | – | –
HIV-1 isolate 218 (reverse transcriptase changes: T39A E40F M41L K43E N54I D67N S68G V75M W88C G190A R211K T215Y K219Q K223Q, study 88) | – | 12 | – | 3.2 | 0.1 | 54 | 2.5
HIV-1 isolate 276 (reverse transcriptase changes: M41L E44D V118I M184V L210W R211K T215Y, study 93) | 32.2 | 7.9 | – | – | – | – | –
HIV-1 isolate 287 (reverse transcriptase changes: M41L L210W R211K T215Y, study 93) | 100 | 3.8 | – | – | – | – | –
HIV-1 isolate 311 (reverse transcriptase changes: K102Q D123E S162C M184V T200A Q207E A272P K277R I293V, study 129) | – | 3 | 1 | – | – | – | –
HIV-1 isolate 323 (reverse transcriptase changes: M41L K43Q S68G V118I M184V Q207E L210W R211K T215Y L228H K277R T286A I293V E297K, study 119) | 5.5 | 5.5 | 1.7 | 1.7 | 0.2 | 0.3 | –
HIV-1 isolate 385 (reverse transcriptase changes: K103N K122E D123E I135M S162C T200A Q207A R211K P225H V245Q K277R I293V, study 129) | – | 1 | – | – | – | – | –
HIV-1 isolate 716 (reverse transcriptase changes: M41L E44D V118I L210W R211K T215Y, study 93) | 100 | 4.7 | – | – | – | – | –
HIV-1 isolate 757 (reverse transcriptase changes: M41L D67N T69D D123E M184V G196R L210W T215Y, study 32) | 60 | 30 | – | – | – | – | –
HIV-1 isolate 842 (reverse transcriptase changes: K70R D177N I178L Q197E R211K V245T D250E T286A I293V, study 129) | – | 1 | – | – | – | 3 | –
HIV-1 isolate 857 (reverse transcriptase changes: V118I M184V, study 93) | 1 | 1.8 | – | – | – | – | –
HIV-1 isolate 995 (reverse transcriptase changes: K122E F214L A272P K277R M357T A376T A400T N447S D460N S468T S519N, study 13) | 1 | 1 | – | 1 | – | 1 | –
HIV-1 isolate 1029 (reverse transcriptase changes: V35T D67N T69D K70R L100I K102R K103N I135L E169D K173A Q174K I178L Q207A R211K T215F K219Q L228H V245Q E248D A272P T286A E291D V292I E297T, study 109) | 82 | 1.7 | 2.4 | 1.2 | – | 108 | 250
HIV-1 isolate 1037 (reverse transcriptase changes: K102Q Q151M S162C K277R, study 9) | 4.7 | 3.5 | 9.2 | 5.1 | – | – | –
HIV-1 isolate 1199 (reverse transcriptase changes: V75I F77L K102Q Q151M S162C K277R, study 9) | – | 50 | 100 | 100 | – | 2 | 2
HIV-1 isolate 1229 (reverse transcriptase changes: M184V, study 93) | 1.4 | 1.5 | – | – | – | – | –

Test System | fold change of IC50 against reference virus (zidovudine) | fold change of IC50 against reference virus (abacavir) | fold change of IC50 against reference virus (stavudine) | fold change of IC50 against reference virus (didanosine) | fold change of IC50 against reference virus (delavirdine) | fold change of IC50 against reference virus (nevirapine) | fold change of IC50 against reference virus (efavirenz)
HIV-1 isolate 1277 (reverse transcriptase changes: K20R K122E I142V T165I M184V K277R A288S I293V, study 129) | – | 4 | 1 | – | – | – | –
HIV-1 isolate 1291 (reverse transcriptase changes: M41L E44D D67N T69D A98S K122E D123E D177E M184V L210W R211K T215Y K219N, study 32) | 84 | 62 | – | – | – | – | –
HIV-1 isolate 1415 (reverse transcriptase changes: E44D V118I M184V, study 93) | 1 | 3.1 | – | – | – | – | –
HIV-1 isolate 1502 (reverse transcriptase changes: K102Q S162C G190Q K277R I293V, study 55) | – | – | – | – | 6 | 600 | 300
HIV-1 isolate 1509 (reverse transcriptase changes: K102Q S162C I178V K277R I293V K347R R358K V435I S468P, study 111) | – | – | – | – | 1 | 1 | 1
HIV-1 isolate 1531 (reverse transcriptase changes: K102Q S162C G190A K277R, study 110) | – | – | – | – | 0.5 | 75 | 7.6
HIV-1 isolate 1532 (reverse transcriptase changes: V35T V60I K103N D121H K122E I135T K173L Q174K D177E V179I T200A Q207A R211S V245K D250E T286A E291D V292I I293V E312D K323R, study 14) | – | – | – | – | 73 | 62 | 23
HIV-1 isolate 1537 (reverse transcriptase changes: K101P K102Q S162C I178V K277R I293V K347R R358K V435I S468P, study 111) | – | – | – | – | 47 | 171 | 26
HIV-1 isolate 1540 (reverse transcriptase changes: K102Q V106A S162C F227L K277R, study 53) | – | – | – | – | 3 | 680 | 8
HIV-1 isolate 1569 (reverse transcriptase changes: K102Q K103N S162C M230L K277R, study 70) | – | – | – | – | ≥ 250 | 780 | 450
HIV-1 isolate 1581 (reverse transcriptase changes: K102Q E138A S162C Y188L K277R, study 53) | – | – | – | – | 75 | 680 | 150
HIV-1 isolate 1583 (reverse transcriptase changes: K102Q S162C P225H K277R, study 53) | – | – | – | – | 0.2 | 3 | 2
HIV-1 isolate 1587 (reverse transcriptase changes: D67G S68G T69D K70R V118I I135T M184V Q197K F214L T215F D218E K219Q, study 32) | 28 | 24 | – | – | – | – | –
HIV-1 isolate 1600 (reverse transcriptase changes: V118I, study 93) | 1 | 1.2 | – | – | – | – | –
HIV-1 isolate 1610 (reverse transcriptase changes: M41L M184V L210W R211K T215Y, study 93) | 51 | 8 | – | – | – | – | –
HIV-1 isolate 1612 (reverse transcriptase changes: I31T V35T E40D I50V K122E D123S I135T I142T K173S D177E V179I Q207A R211S F214L V245Q A272P E291D I293V P294T L310I E312D D324E, study 14) | – | – | – | – | 6.8 | 8.1 | 5.6
HIV-1 isolate 1626 (reverse transcriptase changes: K11T K20R V21I V35T T39K K43E D123N K173T Q174K D177E V179I I202V Q207A R211S V245Q E248D K281R T286A E291D V292I I293V E312D, study 14) | – | – | – | – | 0.7 | 0.7 | 0.6
HIV-1 isolate 1640 (reverse transcriptase changes: K102Q S162C Y181C M230L K277R, study 70) | – | – | – | – | ≥ 250 | 780 | 25

Source: the supplement of paper PMC3578754
